Data on 14 compounds can be found in PubChem BioAssay AID651828 (ICCB-Longwood Screening Facility, Harvard Medical School, 2012).

Where “and” joins values, the source holds several entries; their conditions need not be identical. Equal values may be shown once. This is a selection; strong and weak results do not stand in their true shares. Calls of active or inactive are those of the source. Rule as the data show it: active = % bound below about 75%; inactive = the rest.

For this assay, the target named is Nucleoprotein (Rift valley fever virus (strain ZH-548 M12)) (UniProt P21700). In words: inhibitors of RVFV nucleoprotein–RNA binding, primary screen, biochemical, fluorescence polarization (AID 651828). To be noted: RVFV N-RNA binding, stronger effect = lower value, concentration not given here. Background: Fluorescence polarisation rises when a labelled molecule tumbles more slowly, as on binding a larger partner.
For the compound `CCOP(OCC)N1CCOCC1`, the % bound was inactive: 107%.
For the compound `O=P(O)(O)F`, the % bound is inactive: 102%.
Turning to `CN(C(=O)Cc1ccc(Cl)c(Cl)c1)[C@H]1CCCC[C@@H]1N1CCCC1`, the % bound was inactive: 97.2% and inactive: 98%.
To `O=C(O[C@H]1CN2CCC1CC2)C1NCc2ccccc2[C@@H]1c1ccccc1` (some centres undefined) belongs inactive: 107%; to `CN(C(=O)Cc1ccc(Cl)c(Cl)c1)[C@@H]1CCCC[C@@H]1N1CCCC1`, inactive: 97.9%; to `O=C(OC1CN2CCC1CC2)c1ccccc1` (centres undefined), inactive: 110%.
For `O=C(OCCN1CCN(CCOCc2ccccc2)CC1)C(O)(c1ccccc1)c1ccccc1` the value was inactive: 99.6%; for `CN(C(=O)Cc1ccc(Cl)c(Cl)c1)[C@@H]1CC[C@]2(CCCO2)C[C@H]1N1CCCC1`, inactive: 91.3%.
To `NC(=O)COC(=O)C1(O)c2ccccc2-c2ccccc21` belongs inactive: 96.5%; to `CN(C(=O)Cc1ccccc1)[C@@H]1CC[C@]2(CCCO2)C[C@H]1N1CCCC1`, inactive: 99.8%; to `Nc1nonc1OCCOc1nonc1N`, inactive: 87.4%.
In the case of `Cc1cc(C)cc(OP(C)(=O)NCc2ccccc2)c1` (centres undefined), the % bound is inactive: 96.3%.
For `CN(C)CCS` the value was inactive: 102%; for `CP(=O)(Nc1ccc(Cl)cc1)Oc1ccccc1` (centres undefined), inactive: 97.2%.
